{"source": "the supplement of paper PMC9931576", "binders": {"B1": {"name": "BD56-780 (protein)", "chain 1": "QITLKESGPTLVNPTQTLTLTCTFSGISLSASGVNVGWIRQPPGKALEWLAFISWDGDKRYSPSLKSRLTITTDTSKNQVVLTMTNLDSVDTATYYCAHSFAYYSELGSLDYWGQGTLVTVSS", "chain 2": "QSVLTQPPSVSGAPGQRVTISCTGSSSNIGAGYDVHWYQQLPGTAPKLLIFDSRNRPSGVPGRFSGSKSGTSASLAITGLQAEDEATYYCQSYDSSLTAVVFGGGTKLTVL"}, "B2": {"name": "BD56-756 (protein)", "chain 1": "QVTLRESGPALVKPTQTLTLTCTFSGFSLSTSGMCVSWIRQPPGKALEWLALIGWDDDKYYTTSLKTRLTISKDTSKNQVVLTMTNMDPVDTATYYCARIHGDNSEYAFDIWGQGTMVTVSS", "chain 2": "SYELTQPPSVSVSPGQTARITCSGDALPIQYSYWYRQKPGQAPVLVIYKDSERPSGIPERFSGSNSGTTVTLTISGVQAEDEADYYCQSADSSGTYPWVFGGGTKLTVL"}, "B3": {"name": "BD56-788 (protein)", "chain 1": "QVQLQESGPGLVKPSETLSLTCTVSGGSISDHYWSWIRQPAGKGLEWIGRIYTSGSTNCNPSLKSRVTMSVDTSKNQFSLKLSSVTAADTAVYFCVRDQGVPGLYFSDDRYFDWLHYDANWFDPWGQGTLVTVSS", "chain 2": "QSVLTQPPSVSGAPGQRVTISCTGSSSNIGAGYDVHWYQQLPGTAPKLLIYGNNNRPSGVPDQFSGSKSGTSASLAITGLQAEDEADYYCQSYDSSLSGYVFGTGTKVTVL"}, "B4": {"name": "BD56-794 (protein)", "chain 1": "EVQLVQSGAEVKKPGESLKISCKDSGYSFTSYWIGWVRQMPGKGLEWMGIIYPGDSDTRYSPSFQGQVTISADKSISTAYLQWSSLKASDTAMYYCAISDGYNSFFLWYWGQGTLVTVSS", "chain 2": "EIVMTQSPATLSVSPGERATLSCRASQSVSSNLAWYQQKPGQAPRLLIYGASTRATDIPARFSGSGSGTEFTLTISSLQSEDFAVYYCQQYNNWPPTFGQGTKLEIK"}, "B5": {"name": "BD56-762 (protein)", "chain 1": "EVQLVESGGGLVQPGRSLRLSCAASGFTFDDYAMHWVRQAPGKGLEWVSGISWNSGSIGYADSVKGRFTISRDNARNSLYLQMNSLRAEDTALYYCAKDLTDGYNSGDWYFHYWGQGTLVTVAS", "chain 2": "QSALTQPASVSGSPGQSITISCTGTSSDVGGFNYVSWYQQHPGKAPKLMIYDVSKRPSGVSDRFSGSKSGNTASLTISGLQPEDEADYYCTSYTSSSTVVFGGGTKLTVL"}}, "note": "Human monoclonal antibodies against the spike receptor-binding domain (heavy:light variable regions). IC50 against pseudoviruses bearing the spike of naturally observed variants; lower = stronger; >10 µg/ml means not reached at the top dose. No active / inactive call. The stated detection limit is 0.0005 µg/ml; values near or below 0.001 µg/ml lie at the floor of the assay.", "data": [{"molecular_target": "SARS-CoV-2 Omicron BA.1 spike pseudovirus", "assay": "pseudovirus neutralization IC50; higher = weaker neutralization", "method": "(§1)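 Single-round VSV luciferase pseudovirus mixed with antibody dilutions for 1 h and put on Huh-7 cells for about a day; IC50 from the dose curve.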", "units": {"pseudovirus neutralization IC50": "µg/mL"}, "values": [{"binder": "B1", "pseudovirus neutralization IC50": 0.0107}, {"binder": "B2", "pseudovirus neutralization IC50": 0.00676}, {"binder": "B3", "pseudovirus neutralization IC50": 0.000991}, {"binder": "B4", "pseudovirus neutralization IC50": 0.000207}, {"binder": "B5", "pseudovirus neutralization IC50": 0.0577}]}, {"molecular_target": "SARS-CoV-2 Omicron BA.2 spike pseudovirus", "assay": "pseudovirus neutralization IC50; higher = weaker neutralization", "method": "as §1", "units": {"pseudovirus neutralization IC50": "µg/mL"}, "values": [{"binder": "B1", "pseudovirus neutralization IC50": "> 10"}, {"binder": "B2", "pseudovirus neutralization IC50": 0.106}, {"binder": "B3", "pseudovirus neutralization IC50": 0.000596}, {"binder": "B4", "pseudovirus neutralization IC50": 0.000581}, {"binder": "B5", "pseudovirus neutralization IC50": "> 10"}]}, {"molecular_target": "SARS-CoV-2 Omicron BA.2.75 spike pseudovirus", "assay": "pseudovirus neutralization IC50; higher = weaker neutralization", "method": "as §1", "units": {"pseudovirus neutralization IC50": "µg/mL"}, "values": [{"binder": "B1", "pseudovirus neutralization IC50": "> 10"}, {"binder": "B2", "pseudovirus neutralization IC50": 0.038}, {"binder": "B3", "pseudovirus neutralization IC50": "> 10"}, {"binder": "B4", "pseudovirus neutralization IC50": 0.000381}, {"binder": "B5", "pseudovirus neutralization IC50": "> 10"}]}, {"molecular_target": "SARS-CoV-2 Omicron BA.2.75.2 spike pseudovirus", "assay": "pseudovirus neutralization IC50; higher = weaker neutralization", "method": "as §1", "units": {"pseudovirus neutralization IC50": "µg/mL"}, "values": [{"binder": "B1", "pseudovirus neutralization IC50": "> 10"}, {"binder": "B2", "pseudovirus neutralization IC50": 0.169}, {"binder": "B3", "pseudovirus neutralization IC50": "> 10"}, {"binder": "B4", "pseudovirus neutralization IC50": 0.00128}, {"binder": "B5", "pseudovirus neutralization IC50": "> 10"}]}, {"molecular_target": "SARS-CoV-2 Omicron BA.5 spike pseudovirus", "assay": "pseudovirus neutralization IC50; higher = weaker neutralization", "method": "as §1", "units": {"pseudovirus neutralization IC50": "µg/mL"}, "values": [{"binder": "B1", "pseudovirus neutralization IC50": "> 10"}, {"binder": "B2", "pseudovirus neutralization IC50": 0.233}, {"binder": "B3", "pseudovirus neutralization IC50": "> 10"}, {"binder": "B4", "pseudovirus neutralization IC50": 0.000989}, {"binder": "B5", "pseudovirus neutralization IC50": "> 10"}]}, {"molecular_target": "SARS-CoV-2 Omicron BM.1.1.1 spike pseudovirus", "assay": "pseudovirus neutralization IC50; higher = weaker neutralization", "method": "as §1", "units": {"pseudovirus neutralization IC50": "µg/mL"}, "values": [{"binder": "B1", "pseudovirus neutralization IC50": "> 10"}, {"binder": "B2", "pseudovirus neutralization IC50": 0.18}, {"binder": "B3", "pseudovirus neutralization IC50": "> 10"}, {"binder": "B4", "pseudovirus neutralization IC50": 0.00146}, {"binder": "B5", "pseudovirus neutralization IC50": "> 10"}]}, {"molecular_target": "SARS-CoV-2 Omicron BQ.1.1 spike pseudovirus", "assay": "pseudovirus neutralization IC50; higher = weaker neutralization", "method": "as §1", "units": {"pseudovirus neutralization IC50": "µg/mL"}, "values": [{"binder": "B1", "pseudovirus neutralization IC50": "> 10"}, {"binder": "B2", "pseudovirus neutralization IC50": 2.86}, {"binder": "B3", "pseudovirus neutralization IC50": "> 10"}, {"binder": "B4", "pseudovirus neutralization IC50": 0.00298}, {"binder": "B5", "pseudovirus neutralization IC50": "> 10"}]}, {"molecular_target": "SARS-CoV-2 Omicron BR.2 spike pseudovirus", "assay": "pseudovirus neutralization IC50; higher = weaker neutralization", "method": "as §1", "units": {"pseudovirus neutralization IC50": "µg/mL"}, "values": [{"binder": "B1", "pseudovirus neutralization IC50": "> 10"}, {"binder": "B2", "pseudovirus neutralization IC50": 0.188}, {"binder": "B3", "pseudovirus neutralization IC50": "> 10"}, {"binder": "B4", "pseudovirus neutralization IC50": 0.000864}, {"binder": "B5", "pseudovirus neutralization IC50": "> 10"}]}, {"molecular_target": "SARS-CoV-2 Omicron CA.1 spike pseudovirus", "assay": "pseudovirus neutralization IC50; higher = weaker neutralization", "method": "as §1", "units": {"pseudovirus neutralization IC50": "µg/mL"}, "values": [{"binder": "B1", "pseudovirus neutralization IC50": "> 10"}, {"binder": "B2", "pseudovirus neutralization IC50": 0.173}, {"binder": "B3", "pseudovirus neutralization IC50": "> 10"}, {"binder": "B4", "pseudovirus neutralization IC50": 0.00112}, {"binder": "B5", "pseudovirus neutralization IC50": "> 10"}]}, {"molecular_target": "SARS-CoV-2 Omicron XBB spike pseudovirus", "assay": "pseudovirus neutralization IC50; higher = weaker neutralization", "method": "as §1", "units": {"pseudovirus neutralization IC50": "µg/mL"}, "values": [{"binder": "B1", "pseudovirus neutralization IC50": "> 10"}, {"binder": "B2", "pseudovirus neutralization IC50": "> 10"}, {"binder": "B3", "pseudovirus neutralization IC50": "> 10"}, {"binder": "B4", "pseudovirus neutralization IC50": "> 10"}, {"binder": "B5", "pseudovirus neutralization IC50": "> 10"}]}, {"molecular_target": "SARS-CoV-2 early D614G spike pseudovirus", "assay": "pseudovirus neutralization IC50; higher = weaker neutralization", "method": "as §1", "units": {"pseudovirus neutralization IC50": "µg/mL"}, "values": [{"binder": "B1", "pseudovirus neutralization IC50": "> 10"}, {"binder": "B2", "pseudovirus neutralization IC50": "> 10"}, {"binder": "B3", "pseudovirus neutralization IC50": "> 10"}, {"binder": "B4", "pseudovirus neutralization IC50": "> 10"}, {"binder": "B5", "pseudovirus neutralization IC50": "> 10"}]}]}
